Compound potency records, mixed from different reports. Data source: NIAID ChemDB in PubChem.

Shared fields: tests in culture; organism: HIV-1; method: cytopathic effect / MTT; measure: EC50

Two numbers with a dash give a range or band. Neighbouring rows are from separate reports. Blank or dashed fields: not listed here. ECn is the concentration giving n% inhibition of infection, replication or growth.

SMILES	strain or isolate	cells	mutations	value
C=C(c1ccccc1)c1c(CC)c(=O)[nH]c(=O)n1COCC	IIIB	MT-4	-	2.8 µM
COc1ccc(NC(=S)NN2C(=O)[C@@H]3[C@H](C2=O)[C@]2(C)C(C)=C(C)[C@@]3(C)C2C)cc1	IIIB	MT-4	-	>55 µM
CCn1cc(C(=O)O)c(=O)c2cc(F)c(N3CCN(CN4C(=O)C(=Nc5ccc(S(=O)(=O)Nc6ncnc(OC)c6OC)cc5)c5cc(Cl)ccc54)CC3)cc21	IIIB	MT-4	-	>51 µg/mL
COc1cc(Cc2cnc(/N=C3\C(=O)N(CN4CCN(c5cc6c(cc5F)c(=O)c(C(=O)O)cn6C5CC5)CC4)c4ccc(F)cc43)nc2N)cc(OC)c1OC	IIIB	MT-4	-	17.9 µg/mL
CCCc1cc(=O)oc2c3c(c4c(c12)OC(C)(C)C=C4)O[C@H](C)[C@@H](C)/C3=N/O	-	MT-2	-	>15.8 µM
COc1ccc2c3ccc(N)cc3n3c(C)c(C(C)=O)cc3c2c1	-	MT-4	-	>43 µM
COc1cc(Cc2cnc(/N=C3\C(=O)N(CN4CCN(c5cccc(C(F)(F)F)c5)CC4)c4ccc(F)cc43)nc2N)cc(OC)c1OC	IIIB	MT-4	-	62.1 µg/mL
CCCc1cc(=O)oc2c3c(c4c(c12)OC(C)(C)C=C4)O[C@H](C)C(C)(C)C3=O	-	MT-2	-	>19.3 µM
CC(C)CN(C[C@@H](O)[C@H](Cc1ccccc1)NC(=O)O[C@H]1CO[C@H]2OCC[C@H]21)S(=O)(=O)c1ccc(-c2ccncc2)cc1	LAI	MT-4	-	0.02 µM
N#CC1=CC2C(c3ccccc3N2CC(=O)O)N(c2ccc([N+](=O)[O-])cc2)C1=O	LAI	MT-4	-	1–32 µM
CCCc1nc(-c2ccc(S(=O)(=O)N(CC(C)C)C[C@@H](O)[C@H](Cc3ccccc3)NC(=O)O[C@H]3CO[C@H]4OCC[C@H]43)cc2)co1	LAI	MT-4	-	0.004 µM
CC(C)(C)NC(=O)[C@@H]1CN(Cc2cccnc2)CCN1C[C@@H](O)C[C@@H](Cc1ccccc1)C(=O)N[C@H]1c2ccccc2C[C@H]1OC(=O)CCCCOc1ccc(C[C@H](NC(=O)OC(C)(C)C)C(=O)O)cc1	IIIB	MT-4	-	0.325 µM
COc1ccc(NC(=S)NN2C(=O)[C@H]3[C@H]4C=C(C)[C@H](C[C@@H]4C(C)C)[C@H]3C2=O)cc1	IIIB	MT-4	-	>52 µM
CN1c2ccccc2C2C1C=C(/C(N)=N/O)C(=O)N2c1ccc([N+](=O)[O-])cc1	LAI	MT-4	-	1–32 µM
C=C(c1ccccc1)c1c(CC)c(=O)[nH]c(=O)n1COCC#Cc1ccccc1	IIIB	MT-4	-	3.8 µM
C=CCNc1nc(-c2ccc(S(=O)(=O)N(CC(C)C)C[C@@H](O)[C@H](Cc3ccccc3)NC(=O)COc3c(C)cccc3C)cc2)cs1	LAI	MT-4	-	7.943 µM
N#Cc1cc2[nH]c3ccccc3c2n(-c2ccc([N+](=O)[O-])cc2)c1=O	LAI WT	MT-4	-	0.32 µM
Fc1cccc(F)c1Cn1c(=S)[nH]c2cccnc21	IIIB	MT-4	-	15.8 µg/mL
CCCCCCCCCCCCCCCC(=O)OCC(COC(=O)CCCCCCCCCCCCCCC)OC(=O)CCC(=O)O[C@@H]1Cc2ccccc2[C@@H]1NC(=O)[C@H](Cc1ccccc1)C[C@H](O)CN1CCN(Cc2cccnc2)C[C@H]1C(=O)NC(C)(C)C	IIIB	MT-4	-	5.3 µM
Cc1cc(C)nc(NS(=O)(=O)c2ccc(N=C3C(=O)N(CN4CCN(c5cc6c(cc5F)c(=O)c(C(=O)O)cn6C5CC5)CC4)c4ccc(F)cc43)cc2)n1	IIIB	MT-4	-	30.12 µM
CCCc1cc(=O)oc2c3c(c4c(c12)OC(C)(C)C=C4)OC(C)(C)[C@H](C)[C@@H]3O	-	MT-2	-	>21.3 µM
Nc1nc2c(ncn2C2CC(O)C(COP(=O)(S)OC3CC(n4cnc5c(=O)[nH]c(N)nc54)OC3COP(O)(=S)OC3CC(n4cnc5c(=O)[nH]c(N)nc54)OC3CO)O2)c(=O)[nH]1	IIIB	MT-4	-	37.1 µM
C=C(c1cc(C)cc(C)c1)c1c(CC)c(=O)[nH]c(=O)n1COC/C=C/c1ccccc1	IIIB	MT-4	-	0.03 µM
O=C(Nc1ccccc1)c1cc(S(=O)(=O)Nc2nc3ncccc3[nH]2)c(SSc2cc(Cl)c(C(=O)Nc3ccccc3)cc2S(=O)(=O)Nc2nc3ncccc3[nH]2)cc1Cl	-	CEM + CEM-SS	-	113 µM
CCn1cc(C(=O)O)c(=O)c2cc(F)c(N3CCN(CN4C(=O)C(=Nc5ccc(S(=O)(=O)Nc6ncnc(OC)c6OC)cc5)c5ccccc54)CC3)cc21	IIIB	MT-4	-	>88 µg/mL
CC(C)CN1c2ccccc2C2C1C=C(C#N)C(=O)N2c1ccc([N+](=O)[O-])cc1	LAI	MT-4	-	<1 µM
CCn1cc(C(=O)O)c(=O)c2cc(F)c(N3CCN(CN4C(=O)/C(=N\c5ncc(Cc6cc(OC)c(OC)c(OC)c6)c(N)n5)c5ccccc54)CC3)cc21	IIIB	MT-4	-	>66 µg/mL
CCCc1cc(=O)oc2c3c(c4c(c12)OC(C)(C)C=C4)O[C@H](CC)[C@@H](C)C3=O	-	MT-2	-	>6.8 µM
CCn1cc(C(=O)O)c(=O)c2cc(F)c(N3CCN(CN4C(=O)C(=Nc5ccc(S(=O)(=O)Nc6ncnc(OC)c6OC)cc5)c5cc(Br)ccc54)CC3)cc21	IIIB	MT-4	-	>34 µg/mL
Fc1cccc(F)c1CCn1c(=S)[nH]c2ccc(Cl)nc21	IIIB	MT-4	-	2.09 µg/mL
CC(C)(C)NC(=O)[C@@H]1CN(Cc2cccnc2)CCN1C[C@@H](O)C[C@@H](Cc1ccccc1)C(=O)N[C@H]1c2ccccc2C[C@H]1OC(=O)[C@H](Cc1ccccc1)NC(=O)OC(C)(C)C	IIIB	MT-4	-	1.83 µM
Nc1nc2c(ncn2C2CC(O)C(COP(=O)(O)OP(=O)(O)OC3CC(n4cnc5c(=O)[nH]c(N)nc54)OC3COP(=O)(O)OP(=O)(O)OC3CC(n4cnc5c(=O)[nH]c(N)nc54)OC3COP(=O)(O)O)O2)c(=O)[nH]1	IIIB	MT-4	-	>100 µM
CCOCn1c(Cc2ccccc2)c(C(C)C)c(=O)[nH]c1=O	IIIB	MT-4	RT-K103N Y181C	>100 µM
CCn1cc(C(=O)O)c(=O)c2cc(F)c(N3CCN(CN4C(=O)/C(=N\c5ncc(Cc6cc(OC)c(OC)c(OC)c6)c(N)n5)c5cc(F)ccc54)C(C)C3)c(F)c21	IIIB	MT-4	-	57.1 µg/mL
CC(C)C[C@H](NC(=O)OC(C)(C)C)C(=O)O[C@@H]1Cc2ccccc2[C@@H]1NC(=O)[C@H](Cc1ccccc1)C[C@H](O)CN1CCN(Cc2cccnc2)C[C@H]1C(=O)NC(C)(C)C	IIIB	MT-4	-	1.8 µM
COc1c(N2CCN(CN3C(=O)C(=Nc4ccc(S(=O)(=O)Nc5nc(C)cc(C)n5)cc4)c4ccccc43)C(C)C2)c(F)cc2c(=O)c(C(=O)O)cn(C3CC3)c12	IIIB	MT-4	-	15.6 µM
C=C(c1cc(C)cc(C)c1)c1c(CC)c(=O)[nH]c(=O)n1COCC	IIIB	MT-4	RT-K103N Y181C	29 µM
CC(C)[C@]12C=C[C@](C)(CC1)[C@H]1C(=O)N(NC(=O)Nc3ccccc3)C(=O)[C@H]12	IIIB	MT-4	-	>100 µM
C=C(c1ccccc1)c1c(CC)c(=O)[nH]c(=O)n1COC/C=C/c1ccccc1	IIIB	MT-4	-	0.32 µM
CC(=O)c1cc2c3ccccc3c3ccc(N)cc3n2c1C	-	MT-4	-	>18 µM
CCc1c(Sc2ccccc2)n(COCc2ccccc2)c(=O)[nH]c1=O	RF	MT-4	-	0.0016 µM
CCOC(=O)c1cc(-c2cccc([N+](=O)[O-])c2)n(-c2ccccc2)c1C	-	MT-4	-	>212 µM
COc1cc(Cc2cnc(/N=C3\C(=O)N(CN4CCN(c5ccccc5)CC4)c4ccc(F)cc43)nc2N)cc(OC)c1OC	IIIB	MT-4	-	>84.7 µg/mL
CCCc1cc(=O)oc2c3c(c4c(c12)OC(C)(C)C=C4)O[C@H](CC)[C@H](C)[C@@H]3O	-	MT-2	-	>20.9 µM
CCCCCCCC/C=C\CCCCCCCC(=O)OCC(COC(=O)CCCCCCC/C=C\CCCCCCCC)OC(=O)CCC(=O)O[C@@H]1Cc2ccccc2[C@@H]1NC(=O)[C@H](Cc1ccccc1)C[C@H](O)CN1CCN(Cc2cccnc2)C[C@H]1C(=O)NC(C)(C)C	IIIB	MT-4	-	6.9 µM
COc1ccc2[nH]c(=S)n(Cc3c(F)cccc3F)c2n1	IIIB	MT-4	-	1.96 µg/mL
CCn1cc(C(=O)O)c(=O)c2cc(F)c(N3CCN(CN4C(=O)C(=Nc5ccc(S(=O)(=O)Nc6nc(C)cc(C)n6)cc5)c5ccccc54)C(C)C3)c(F)c21	IIIB	MT-4	-	15.9 µM
COc1cccc2c1[nH]c(=S)n2Cc1c(F)cccc1F	IIIB	MT-4	-	>0.44 µg/mL
CCn1cc(C(=O)O)c(=O)c2cc(F)c(N3CCN(CN4C(=O)C(=Nc5ccc(S(=O)(=O)Nc6nc(C)cc(C)n6)cc5)c5cc(F)ccc54)CC3)cc21	IIIB	MT-4	-	19.12 µM
CC(C)CN(C[C@@H](O)[C@H](Cc1ccccc1)NC(=O)O[C@H]1CO[C@H]2OCC[C@H]21)S(=O)(=O)c1ccc(-c2coc(-c3ccco3)n2)cc1	LAI	MT-4	-	0.004 µM
CCCc1c(Sc2ccccc2)n(COCCO)c(=O)[nH]c1=O	IIIB	MT-4	-	3.6 µM
CCn1cc(C(=O)O)c(=O)c2cc(F)c(N3CCN(CN4C(=O)C(=Nc5ccc(S(=O)(=O)Nc6ncccn6)cc5)c5cc(Br)ccc54)CC3)cc21	IIIB	MT-4	-	>62 µg/mL
COc1cc(Cc2cnc(/N=C3\C(=O)N(CN4CCN(c5c(F)cc6c(=O)c(C(=O)O)cn(C7CC7)c6c5OC)CC4C)c4ccc(F)cc43)nc2N)cc(OC)c1OC	IIIB	MT-4	-	25.2 µg/mL
Cc1ccnc2c1[nH]c(=S)n2Cc1c(F)cccc1F	IIIB	MT-4	-	>0.083 µg/mL
C=C(c1cc(C)cc(C)c1)c1c(CC)c(=O)[nH]c(=O)n1COC/C(C)=C/c1ccccc1	IIIB	MT-4	RT-Y181C	7 µM
Cc1cc(Br)cc(C)c1OCC(=O)N[C@@H](Cc1ccccc1)[C@H](O)CN(CC(C)C)S(=O)(=O)c1ccc(-c2csc(Nc3ccc(Cl)c(Cl)c3)n2)cc1	LAI	MT-4	-	100 µM
C=C(c1cc(C)cc(C)c1)c1c(CC)c(=O)[nH]c(=O)n1COCC#Cc1ccccc1	IIIB	MT-4	-	0.29 µM
CCCc1cc(=O)oc2c3c(c4c(c12)OC(C)(C)C=C4)O[C@@H](C)C(C)=C3	-	MT-2	-	>24.7 µM

Repeating the final 4 entries:

SMILES,strain or isolate,cells,mutations,value
C=C(c1cc(C)cc(C)c1)c1c(CC)c(=O)[nH]c(=O)n1COC/C(C)=C/c1ccccc1,IIIB,MT-4,RT-Y181C,7 µM
Cc1cc(Br)cc(C)c1OCC(=O)N[C@@H](Cc1ccccc1)[C@H](O)CN(CC(C)C)S(=O)(=O)c1ccc(-c2csc(Nc3ccc(Cl)c(Cl)c3)n2)cc1,LAI,MT-4,-,100 µM
C=C(c1cc(C)cc(C)c1)c1c(CC)c(=O)[nH]c(=O)n1COCC#Cc1ccccc1,IIIB,MT-4,-,0.29 µM
CCCc1cc(=O)oc2c3c(c4c(c12)OC(C)(C)C=C4)O[C@@H](C)C(C)=C3,-,MT-2,-,>24.7 µM